Pooled drug test results. Numbers come from NIAID ChemDB, via PubChem.

Shared fields: tests in culture; endpoint: EC50

Conditions beyond the fields shown may differ between rows. Blank or dashed fields: not listed here. ECn is the concentration giving n% inhibition of infection, replication or growth.

structure | species | strain or isolate | cell line | read by | result
O=C1CCC(N2C(=O)c3ccccc3C2=O)C(=O)N1 | Encephalitozoon cuniculi | - | MRC-5 | - | >10 µg/mL
CCNCCCCNCCCCNCCCCNCCCCNCC | Encephalitozoon cuniculi | - | - | - | 42.5 µM
CSc1nsc(-c2ccccc2)c1C#N | Encephalomyocarditis virus | Encephalomyocarditis virus | L929 | plaque count | 10 µM
CSc1nsc(-c2ccc(OCCOc3ccc([N+](=O)[O-])cc3)cc2)c1C#N | Encephalomyocarditis virus | - | HEP-2/L-929/VERO | plaque count | >1 µM
CCNCCCCNC[C@H]1CC[C@@H]1CNCCCCNCC | Encephalitozoon cuniculi | - | - | - | 325 µM
N#Cc1c(-c2ccccc2)nsc1Cl | Encephalomyocarditis virus | Encephalomyocarditis virus | L929 | plaque count | >20 µM
CSc1nsc(-c2ccccc2)c1C#N | Encephalomyocarditis virus | - | L929 | plaque count | 10 µM
CCNCCCCNCCCCNCCCCNCCCCN(CC)CCCCNCCCCNCCCCNCCCCNCC | Encephalitozoon cuniculi | - | - | - | 30.3 µM
CC[C@@H](C)CNCCCNCCCCCCCNCCCNC[C@@H](C)CC | Encephalitozoon cuniculi | - | - | - | >50 µM
CSc1nsc(-c2ccc(OS(=O)(=O)c3ccc(C)cc3)cc2)c1C#N | Encephalomyocarditis virus | - | L929 | plaque count | >25 µM
CSc1nsc(-c2ccc(OCCCOc3ccccc3)cc2)c1C#N | Encephalomyocarditis virus | - | HEP-2/L-929/VERO | plaque count | >20 µM
COc1nsc(-c2ccccc2)c1C#N | Encephalomyocarditis virus | Encephalomyocarditis virus | L929 | plaque count | >25 µM
CCNCCCCNCCCCNCCCCNCCCCNCCCCNCCCCNCCCCNCCCCNCCCCNCC | Encephalitozoon cuniculi | - | - | - | 0.63 µM
CSc1nsc(-c2ccc(OCCOc3ccc(C#N)cc3)cc2)c1C#N | Encephalomyocarditis virus | - | HEP-2/L-929/VERO | plaque count | >2 µM
CSc1nsc(-c2ccc(O)cc2)c1C#N | Encephalomyocarditis virus | Encephalomyocarditis virus | L929 | plaque count | >2 µM
CC[C@@H](C)CNCCCNCCCCCCCNCCCN | Encephalitozoon cuniculi | - | - | - | <500 µM
CCNC/C=C\CNCCCCNCCCCNCC | Encephalitozoon cuniculi | - | - | - | 745 µM
N[C@@H]1C=C[C@H](NCCCNCC2CCCC(CNCCCNC3C=C[C@H](N)C3)C2)C1 | Encephalitozoon cuniculi | - | - | - | <100 µM
COc1ccc(-c2snc(SC)c2C#N)cc1 | Encephalomyocarditis virus | - | L929 | plaque count | >10 µM
CSc1nsc(-c2ccc(OCCCOc3ccc([N+](=O)[O-])cc3)cc2)c1C#N | Encephalomyocarditis virus | - | HEP-2/L-929/VERO | plaque count | >0.5 µM
N[C@@H]1C=C[C@H](NCCCNCC2CCCCCC2)CCC1 | Encephalitozoon cuniculi | - | - | - | <100 µM
Cc1nsc(C)c1C#N | Encephalomyocarditis virus | Encephalomyocarditis virus | L929 | plaque count | >1000 µM
CCNCCCCNC/C=C\CNCCCCNCCCCNCC | Encephalitozoon cuniculi | - | - | - | 600 µM